Residue numbers refer to the chain shown, from its start. Names may count otherwise.
Biological target: the molecule itself

B1: NS1-FL (W187A), strain A/Puerto Rico/8/1934 H1N1 (natural protein)
chain: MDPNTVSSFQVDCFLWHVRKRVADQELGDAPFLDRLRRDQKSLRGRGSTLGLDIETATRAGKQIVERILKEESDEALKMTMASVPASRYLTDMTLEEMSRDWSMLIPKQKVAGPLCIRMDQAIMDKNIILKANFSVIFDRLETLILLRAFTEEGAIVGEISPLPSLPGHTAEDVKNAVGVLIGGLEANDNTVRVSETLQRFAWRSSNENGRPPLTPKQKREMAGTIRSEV
stoichiometry N: 2

B2: NS1-FL (R38A/K41A/W187A), strain A/Puerto Rico/8/1934 H1N1 (natural protein)
chain: B1 chain with R38A, K41A
stoichiometry N: 2
